Anti-infective test results gathered from many reports (values: NIAID ChemDB through PubChem).

Common to all: tests in culture; species: Bovine viral diarrhea virus; read by: cytopathic effect; endpoint: EC50

ECn: concentration that inhibits the pathogen or its effect by n%. An empty or dashed field is not shown. Rows are shuffled and stem from different studies.

smiles | strain | cells | result
O=C1Nc2ccc([N+](=O)[O-])cc2/C1=N/N=C1/SCC(=O)N1c1ccccc1 |  | MDBK | 44 µg/mL
COc1ccc(OC)c(OC)c1CNC(=O)c1ccc2cccnc2n1 | NADL | WST-1 | ~1.1 µM
CCCN(CCC)CCSc1nnc2c(n1)[nH]c1ccccc12 | NADL (TYPE 1) | MDBK | 0.03 µM
CCCCCCCCCN1C[C@H](O)[C@@H](O)[C@H](O)[C@H]1CO |  | MDBK | 2.5 µM
CC(=O)O[C@@H]1C[C@@H](CO)O[C@H]1n1cc(/C(Cl)=C\I)c(=O)[nH]c1=O | NADL | MDBK | >100 µM
CCCCN1C(=O)CS/C1=N/N=C1\C(=O)Nc2ccc([N+](=O)[O-])cc21 |  | MDBK | >50 µg/mL
O=C(Nc1ccccn1)c1ccc2cccnc2n1 | NADL | WST-1 | >8 µM
CC(=O)O[C@H]1C[C@H](n2cc(/C(I)=C\I)c(=O)[nH]c2=O)O[C@@H]1CO | NADL | MDBK | >100 µM
O=C(NCc1ccccn1)c1ccc2cccnc2n1 | NADL | WST-1 | >7.6 µM
COc1ccccc1Cn1ccc2nc(-c3ccccc3)nc-2c1 | PE515 | MDBK | 0.016 µg/mL
O=C1Nc2ccc([N+](=O)[O-])cc2/C1=N/N=C1/SCC(=O)N1c1ccc(Cl)cc1 |  | MDBK | >2 µg/mL
FC(F)(F)c1cccc(-c2nc3ccn(Cc4ccc(Br)cc4)cc-3n2)c1 | PE515 | MDBK | 0.083 µg/mL
CC1S/C(=N/N=C2\C(=O)Nc3ccc([N+](=O)[O-])cc32)N(c2ccc(Br)cc2)C1=O |  | MDBK | 13 µg/mL
Brc1ccc(Cn2ccc3nc(-c4cccc(I)c4)nc-3c2)cc1 |  |  | 0.4 µM
CC(=O)O[C@@H]1C[C@@H](CO)O[C@H]1n1cc(/C(I)=C\I)c(=O)[nH]c1=O | NADL | MDBK | >100 µM
O=[N+]([O-])c1ccc2c(c1)c(N=NC(=S)NC1CCCCC1)c(O)n2CN1CCCCC1 |  | MDBK | >21 µg/mL
Fc1cccc(F)c1-c1nc2ccn(Cc3ccc(Cl)c(Cl)c3)cc-2n1 |  | MDBK | 0.061 µg/mL
CCCCN1C(=O)C(C)S/C1=N/N=C1\C(=O)Nc2ccc([N+](=O)[O-])cc21 |  | MDBK | >50 µg/mL
Brc1ccc(Cn2ccc3nc(CCc4ccccc4)nc-3c2)cc1 | PE515 | MDBK | 0.026 µg/mL
CCCCCCCCc1ccc(CONCC(=O)C(=O)[C@H]2NC(=O)[C@H]3NC(=O)[C@H](NC(=O)[C@@H]4NC(=O)[C@H](CC(N)=O)NC(=O)[C@H](NC(=O)[C@@H](CC(C)C)NC)C(O)c5ccc(c(Cl)c5)Oc5cc4cc(c5O[C@@H]4O[C@H](CO)[C@@H](O)[C@H](O)[C@H]4O[C@H]4C[C@](C)(N[NH2+][O-])[C@@H](O)[C@H](C)O4)Oc4ccc(cc4)[C@H]3O[C@H]3C[C@](C)(N)[C@@H](O)[C@H](C)O3)c3ccc(O)c(c3)-c3c(O)cc(O)cc32)cc1 |  | MDBK | 5.3 µM

For reference, 2 entries again:

smiles | strain | cells | result
O=C(NCc1ccccn1)c1ccc2cccnc2n1 | NADL | WST-1 | >7.6 µM
COc1ccccc1Cn1ccc2nc(-c3ccccc3)nc-2c1 | PE515 | MDBK | 0.016 µg/mL